A mixed list of measured activities; the numbers were collected in NIAID ChemDB.

All rows: whole-cell or culture tests; agent: Influenza A virus; cells: MDCK; read-out: EC50

ECn is the concentration giving n% inhibition of infection, replication or growth.

SMILES,strain or isolate,method,value
O[C@H]1[C@H](O)[C@@H](O)CN2CC[C@H](O)[C@H]12,A/HONG KONG/11/88,plaque count,15 µM
C[N+]1(C)CCN(c2ncnc(Cl)c2[N+](=O)[O-])CC1,,cytopathic effect,>70 µg/mL
CC(C)CCCC(C)C1CCC2C3CC=C4CC(OC(=O)Nc5cc(S(=O)(=O)O)cc6cc(S(=O)(=O)O)cc(O)c56)CC[C@]4(C)C3CC[C@]12C,Influenza A/Ishikawa/7/82 (H3N2),cytopathic effect,>200 µM
NC(=O)c1ncn([C@@H]2O[C@H](CO)[C@@H](O)[C@H]2O)n1,Influenza A/Ishikawa/7/82 (H3N2),cytopathic effect,4 µg/mL
Nc1ncnc2c1ncn2[C@@H]1C[C@@H](O)[C@H](CO)O1,,,>100 µM
NC(=O)c1c[se]c([C@@H]2O[C@H](CO)[C@@H](O)[C@H]2O)n1,H1N1 A/WSN,,25 µM
CC(C)CCCC(C)C1CCC2C3CC=C4CC(OC(=O)Cl)CCC4(C)C3CCC12C,Influenza A/Ishikawa/7/82 (H3N2),cytopathic effect,>200 µM
O=[N+]([O-])c1c(N2CCCC2)ncnc1N1CC[N+]2(CC1)CC[N+]1(CCN(c3ncnc(N4CCCC4)c3[N+](=O)[O-])CC1)CC2,,cytopathic effect,>70 µg/mL
CC(C)CCCC(C)C1CCC2C3CC=C4CC(OC(=O)Nc5ccc(S(=O)(=O)O)c6ccccc56)CCC4(C)C3CCC12C,Influenza A/Ishikawa/7/82 (H3N2),cytopathic effect,15 µM
NC12CC3CC(CC(C3)C1)C2,H1N1 A/TEXAS/36/91,neutral red,2 µM
ClCN1CC[N+]2(CC1)CC[N+]1(CCN(CCl)CC1)CC2,,cytopathic effect,>70 µg/mL
C/C=C1\[C@H](OC2O[C@H](CO)[C@@H](O)[C@H](O)[C@H]2O)OC=C(C(=O)O)[C@H]1CC(=O)OCC(OCC)c1ccc(O)c(O)c1,H3N2,cytopathic effect,>100 µM
Nc1nccc2c1ncn2[C@@H]1C[C@H](CO)[C@@H](O)[C@H]1O,,cytopathic effect,>16 µg/mL
Nc1ccn([C@@H]2C[C@@H](O)[C@H](CO)O2)c(=O)n1,,,>100 µM
NC(=O)c1ncn([C@@H]2O[C@H](CO)[C@@H](O)[C@H]2O)n1,Ishikawa,cytopathic effect,8 µg/mL
Cc1cc(Cl)c([N+](=O)[O-])c(N2CC[N+]3(CC2)CC[N+]2(CCN(c4nc(C)cc(Cl)c4[N+](=O)[O-])CC2)CC3)n1,,cytopathic effect,>70 µg/mL
O=C(O[C@@H]1Cc2c(O)cc(O)cc2O[C@@H]1c1cc(O)c(O)c(O)c1)c1cc(O)c(O)c(O)c1,H1N1 A/Yamagata/120/86,plaque count,200 µM
O=[N+]([O-])c1ccc(N2CC[N+]3(CC2)CC[N+]2(CCN(c4ccc([N+](=O)[O-])cc4[N+](=O)[O-])CC2)CC3)c([N+](=O)[O-])c1,,cytopathic effect,>70 µg/mL
CC(C)CCCC(C)C1CCC2C3CC=C4CC(OC(=O)Nc5ccc(S(=O)(=O)O)c6cccc(S(=O)(=O)O)c56)CCC4(C)C3CCC12C,Influenza A/Ishikawa/7/82 (H3N2),cytopathic effect,4 µM
NC12CC3CC(CC(C3)C1)C2,,plaque count,0.08 µg/mL
Cc1cn([C@@H]2C[C@@H](O)[C@H](CO)O2)c(=O)[nH]c1=O,,,>100 µM
C[C@@H](O)C1=C[C@@H](n2cnc3c(N)ncnc32)[C@H](O)[C@@H]1O,Influenza A/Ishikawa/7/82 (H3N2),plaque count,>100 µg/mL
CC(N)C12CC3CC(CC(C3)C1)C2,H1N1 A/Brazil/11/78,,0.6 µM
Cc1cn([C@@H]2C[C@@H](O)[C@H](CO)O2)c(=O)[nH]c1=O,,,>100 µM
NC12CC3CC(CC(C3)C1)C2,Influenza A/Kitakyushu/159/93 (H3N2),plaque count,>50 µg/mL
NC(=O)c1ncn([C@@H]2O[C@H](CO)[C@@H](O)[C@H]2O)n1,,plaque count,3.99 µg/mL
OC(CCl)CN1CC[N+]2(CC1)CC[N+]1(CCN(CC(O)CCl)CC1)CC2,,cytopathic effect,>70 µg/mL
CC(=O)N[C@H]1[C@H]([C@H](O)[C@H](O)CO)OC(C(=O)O)=C[C@@H]1N=C(N)N,A/Victoria/3/75,plaque count,0.008 µM
CCC1[C@H](OC2O[C@H](CO)[C@@H](O)[C@H](O)[C@H]2O)OC=C(C(=O)O)[C@H]1CC(=O)OCCc1ccc(O)cc1,H3N2,cytopathic effect,>100 µM
Cc1nc(Cl)c([N+](=O)[O-])c(N2CC[N+](C)(C)CC2)n1,,cytopathic effect,>70 µg/mL
N=C(N)c1ncn([C@@H]2O[C@H](CO)[C@@H](O)[C@H]2O)n1,Influenza A/Panama/2007/99 (H3N2),neutral red,18 µg/mL
C/C=C1\[C@H](OC2O[C@H](CO)[C@@H](O)[C@H](O)[C@H]2O)OC=C(C(=O)OC)[C@H]1CC(=O)OC,H3N2,cytopathic effect,>100 µM

Again, the opening 2 rows:

| SMILES | strain or isolate | method | value |
|---|---|---|---|
| O[C@H]1[C@H](O)[C@@H](O)CN2CC[C@H](O)[C@H]12 | A/HONG KONG/11/88 | plaque count | 15 µM |
| C[N+]1(C)CCN(c2ncnc(Cl)c2[N+](=O)[O-])CC1 |  | cytopathic effect | >70 µg/mL |

An empty or dashed field is not shown. Lines come from different laboratories, so protocols vary.